A mixed list of measured activities; the numbers were collected in NIAID ChemDB.

All rows: tests on isolated targets; species: HIV-1; target: Protease; measure: Ki

Blank or dashed fields: not listed here. Rows are shuffled and stem from different studies.

structure,method,setting,strain or isolate,result
CC(=O)NCC(=O)NCCCC(C)(C)CN(C[C@@H](O)[C@H](Cc1ccccc1)NC(=O)O[C@H]1CO[C@H]2OCC[C@H]21)S(=O)(=O)c1ccc2c(c1)OCO2,fluorescence,,,<0.001 µM
CON(C)C(=O)c1ccc(S(=O)(=O)N(CC(C)C)C[C@@H](O)[C@H](Cc2ccccc2)NC(=O)O[C@H]2CO[C@H]3OCC[C@H]32)cc1,substrate cleavage / fluorescence,,,0.000192 µM
CC(C)(CCNC(=O)C1CCCC1)CN(C[C@@H](O)[C@H](Cc1ccccc1)NC(=O)O[C@H]1CO[C@H]2OCC[C@H]21)S(=O)(=O)c1ccc2c(c1)OCO2,fluorescence,,,<0.001 µM
COc1cnc(CN=Cc2c(O)[nH]c3ccc(S(=O)(=O)N(CC(C)C)C[C@@H](O)[C@H](Cc4ccccc4)NC(=O)O[C@H]4CO[C@H]5OCC[C@H]54)cc23)c(OC)c1C,fluorescence,,WT,<0.0001 µM
COc1ccc(S(=O)(=O)N(CC(C)C)C[C@@H](O)[C@H](Cc2ccccc2)NC(=O)[C@@H]2CCCC3(C2)OCCO3)cc1,fluorescence,,,0.014 µM
CC(C)(CCCNC(=O)c1cccs1)CN(C[C@@H](O)[C@H](Cc1ccccc1)NC(=O)O[C@H]1CO[C@H]2OCC[C@H]21)S(=O)(=O)c1ccc2c(c1)OCO2,fluorescence,,,<0.001 µM
CC[C@H](C)[C@@H](NC(=O)[C@@H](C[C@H](O)[C@H](CC(C)C)NC(=O)[C@H](Cc1cnc[nH]1)NC(=O)[C@H](Cc1ccccc1)NC(=O)[C@@H]1CCCN1C(=O)[C@@H](N)Cc1cnc[nH]1)C(C)C)C(=O)N[C@@H](Cc1cnc[nH]1)C(=O)O,HPLC,pH 7.0,,0.025 µM
COC[C@@H]1CC(NC(=O)[C@H](OCc2ccccc2)[C@H](O)[C@@H](O)[C@@H](OCc2ccccc2)C(=O)N[C@@H]2CO[C@H](COC)C2)CO1,fluorescence,,,0.103 µM
CC(C)(CCCCOC(=O)N1CCCC1)CN(C[C@@H](O)[C@H](Cc1ccccc1)NC(=O)O[C@H]1CO[C@H]2OCC[C@H]21)S(=O)(=O)c1ccc2c(c1)OCO2,fluorescence,,,<0.001 µM
CC(=O)Nc1ccc(S(=O)(=O)N(CC(C)C)C[C@@H](O)[C@H](Cc2ccccc2)NC(=O)O[C@H]2CCOC2)cc1,HPLC,,,0.02 µM
CC(C)(CCCNC(=S)NCc1ccco1)CN(C[C@@H](O)[C@H](Cc1ccccc1)NC(=O)O[C@H]1CO[C@H]2OCC[C@H]21)S(=O)(=O)c1ccc2c(c1)OCO2,fluorescence,,,<0.001 µM
CC(C)C[C@H](NC(=O)CCCCCCCCCCCCCCC(=O)N[C@@H](Cc1ccc(N)cc1)C(=O)N[C@@H](Cc1ccccc1)C(=O)O)C(=O)N[C@@H](CC(C)C)C(=O)N[C@@H](Cc1ccccc1)C(N)=O,HPLC,,,0.0401 µM
O=C(N[C@@H](Cc1ccccc1)[C@H](O)CN(CC1CCCC1)S(=O)(=O)c1ccc(F)cc1)O[C@@H]1CCOC1,HPLC,,,0.0002 µM
CCN(CC)C(=O)NCCC(C)(C)CN(C[C@@H](O)[C@H](Cc1ccccc1)NC(=O)O[C@H]1CO[C@H]2OCC[C@H]21)S(=O)(=O)c1ccc2c(c1)OCO2,fluorescence,,,<0.001 µM
O=S1(=O)N(Cc2ccccc2CCc2ccccc2)C[C@H](O)[C@@H](O)CN1Cc1ccccc1-c1ccccc1,fluorescence,,,9.3 µM
CC[C@H](C)[C@H](NC(=O)C[C@H](O)[C@H](CC(C)C)NC(=O)[C@H](CC(N)=O)NC(=O)[C@H](CCC(N)=O)NC(=O)[C@H](CO)NC(=O)[C@@H](N)C(C)C)C(=O)N[C@H](C(=O)O)C(C)C,,,,3.69 µM
CC(C)(CCNC(=O)c1cc(F)cc(F)c1)CN(C[C@@H](O)[C@H](Cc1ccccc1)NC(=O)O[C@H]1CO[C@H]2OCC[C@H]21)S(=O)(=O)c1ccc2c(c1)OCO2,fluorescence,,,<0.001 µM
COc1ccc(S(=O)(=O)N(CC(C)C)C[C@@H](O)[C@H](Cc2ccccc2)NC(=O)C2CCCC3(CCCC3)C2)cc1,fluorescence,,,0.685 µM
Cc1cccc(C)c1OCC(=O)N[C@@H](Cc1ccccc1)[C@@H](O)C[C@H](Cc1ccccc1)NC(=O)[C@@H](NS(=O)(=O)c1ccccc1)C(C)C,substrate cleavage,,,0.005 µM
CC(C)C[C@H](NC(=O)[C@@H](NC(=O)CCCCCCCCCCCCCCC(=O)N[C@@H](CC(N)=O)C(=O)N[C@@H](CC1CCCCC1)C(=O)O)C(C)O)C(=O)N[C@@H](Cc1cc(I)c(Oc2cc(I)c(O)c(I)c2)c(I)c1)C(N)=O,HPLC,,,0.0351 µM
CC(=O)c1ncc(-c2ccc(S(=O)(=O)N(CC(C)C)C[C@@H](O)[C@H](Cc3ccccc3)NC(=O)O[C@H]3CO[C@H]4OCC[C@H]43)cc2)o1,substrate cleavage / fluorescence,,,0.000119 µM
Cc1ccc(S(=O)(=O)N(CC(C)C)[C@@H](CCCCNC(=O)N[C@@H]2c3ccccc3C[C@@H]2O)C(=O)O)cc1,fluorescence,,,0.3 µM
CC(C)NC(=S)NCCC(C)(C)CN(C[C@@H](O)[C@H](Cc1ccccc1)NC(=O)O[C@H]1CO[C@H]2OCC[C@H]21)S(=O)(=O)c1ccc2c(c1)OCO2,fluorescence,,,<0.001 µM
Cc1cccc(C)c1OCC(=O)N[C@@H](Cc1ccccc1)[C@@H](O)C[C@H](Cc1ccccc1)NC(=O)[C@@H](NS(=O)(=O)c1cnn(-c2ccccc2)c1C)C(C)C,substrate cleavage,,,1.2 µM
O=S1(=O)N(Cc2ccccc2)C[C@H](O)[C@@H](O)CN1Cc1ccccc1/C=C/c1ccccc1,fluorescence,,,>20 µM
CC(C)C(NC(=O)C(NC1CCCN1C(=O)[C@H](Cc1ccccc1)N1CCC([C@H](C)NC(=O)C(N)CO)=CCC1=O)C(C)C)C(N)=O,,,,>2000 µM
CC(C)C[C@H](NC(=O)[C@@H](NC(=O)CCCCCCCCCCCCCCC(=O)N[C@@H](Cc1ccc(N)cc1)C(=O)N[C@@H](Cc1ccccc1)C(=O)O)C(C)C)C(=O)N[C@@H](Cc1ccccc1)C(N)=O,HPLC,,,0.051 µM
C#CCOC(=O)NCCCC(C)(C)CN(C[C@@H](O)[C@H](Cc1ccccc1)NC(=O)O[C@H]1CO[C@H]2OCC[C@H]21)S(=O)(=O)c1ccc2c(c1)OCO2,fluorescence,,,<0.001 µM
CC(C)(C)c1cc2c(O)c(c1)Cc1cc(C(C)(C)C)cc3c1OCCOc1ccc4ccccc4c1C=NC(=S)N=Cc1c(ccc4ccccc14)OCCOc1c(cc(C(C)(C)C)cc1Cc1cc(C(C)(C)C)cc(c1O)C3)C2,FRET / fluorescence,,,28 µM
CC(C)C[C@H](NC(=O)[C@@H](NC(=O)CCCCCCCCCCCCCCC(=O)N[C@@H](CC(N)=O)C(=O)N[C@@H](Cc1cccc2ccccc12)C(=O)O)C(C)O)C(=O)N[C@@H](Cc1cc(I)c(Oc2cc(I)c(O)c(I)c2)c(I)c1)C(N)=O,HPLC,,,0.0292 µM
CC(C)C(=O)NCCC(C)(C)CN(C[C@@H](O)[C@H](Cc1ccccc1)NC(=O)O[C@H]1CO[C@H]2OCC[C@H]21)S(=O)(=O)c1ccc2c(c1)OCO2,fluorescence,,,<0.001 µM
CC(C)[C@H](NC(=O)OCc1ccccc1)C(=O)N[C@@H](Cc1ccccc1)[C@@H](O)[C@@H](NCc1ccc(Br)cc1)C(=O)N[C@H](C(=O)NCc1nc2ccccc2[nH]1)C(C)C,substrate cleavage,,,0.008 µM
O=C(O)CCC(CCC(=O)O)(CCC(=O)O)NC(=O)CCC(CCC(=O)NC(CCC(=O)O)(CCC(=O)O)CCC(=O)O)(CCC(=O)NC(CCC(=O)O)(CCC(=O)O)CCC(=O)O)NC(=O)CCCOC(=O)C1(C(=O)OCCCC(=O)NC(CCC(=O)NC(CCC(=O)O)(CCC(=O)O)CCC(=O)O)(CCC(=O)NC(CCC(=O)O)(CCC(=O)O)CCC(=O)O)CCC(=O)NC(CCC(=O)O)(CCC(=O)O)CCC(=O)O)C2c3cc4c5c6c3-c3c(cc7c8c3C6C3c6c-5c(cc5ccc9cc(c-8c3c9c65)C7)C4)C21,,,,0.1 µM
Cc1cccc(C)c1OCC(=O)N[C@@H](Cc1ccccc1)[C@@H](O)C[C@H](Cc1ccccc1)NC(=O)[C@@H](NS(=O)(=O)c1c(C)noc1C)C(C)C,substrate cleavage,,,0.115 µM
C=CC(C)(C)c1[nH]c2ccccc2c1C1=C(O)C(=O)C(c2c(C(C)(C)C=C)[nH]c3ccccc23)=C(O)C1=O,,,WT,0.97 µM
CC(C)[C@H](NC(=O)[C@H](Cc1ccccc1)C[C@H](O)[C@H](Cc1ccccc1)NC(=O)OC(C)(C)C)C(=O)N[C@@H](Cc1ccccc1)C(=O)N1CCOCC1,,,,0.0002 µM
COC(=O)NCC(=O)NCCC(C)(C)CN(C[C@@H](O)[C@H](Cc1ccccc1)NC(=O)O[C@H]1CO[C@H]2OCC[C@H]21)S(=O)(=O)c1ccc2c(c1)OCO2,fluorescence,,,<0.001 µM
O=C(NC1CO[C@H](CO)C1)[C@H](OCc1ccccc1)[C@H](O)[C@@H](O)[C@@H](OCc1ccccc1)C(=O)N[C@@H]1CO[C@H](CO)C1,fluorescence,,,0.0048 µM
COC(=O)NCCC(C)(C)CN(C[C@@H](O)[C@H](Cc1ccccc1)NC(=O)O[C@H]1CO[C@H]2OCC[C@H]21)S(=O)(=O)c1ccc2c(c1)OCO2,fluorescence,,,<0.001 µM
COc1ccccc1/C(=N\O)C(=O)C(Br)(Br)Br,,,,2.1 µM
CC[C@H](C)[C@H](NC(=O)OCc1ccccc1)C(=O)N[C@@H](Cc1ccccc1)C(=O)N[C@@H]1[C@H](CC(=O)N[C@H](C(=O)OC)C(C)C)CC[C@H]1O,absorbance,,,2 µM
CC(C)(C)NC(=O)[C@@H]1C[C@@H]2CCCC[C@@H]2CN1C[C@@H](O)[C@H](Cc1ccccc1)NC(=O)[C@@H]1CCCS(=O)(=O)C1,fluorescence,,,0.015 µM
COc1ccc(S(=O)(=O)N(CC2CCCC2)C[C@@H](O)[C@H](Cc2ccccc2)NC(=O)OCc2cccnc2)cc1,HPLC,,,<0.0001 µM
CC(C)(CCCCNS(C)(=O)=O)CN(C[C@@H](O)[C@H](Cc1ccccc1)NC(=O)OC1COCOC1)S(=O)(=O)c1ccc2c(c1)OCO2,fluorescence,,,<0.001 µM
CC(C)(C)S(=O)(=O)C[C@@H](Cc1cccc2ccccc12)C(=O)NCc1ccc2c(c1)[C@H](O)[C@@H](O)c1cc(CNC(=O)[C@H](Cc3cccc4ccccc34)CS(=O)(=O)C(C)(C)C)ccc1C2=O,,,,2 µM
COC(=O)NCCCC(C)(C)CN(C[C@@H](O)[C@H](Cc1ccccc1)NC(=O)O[C@H]1CO[C@H]2OCC[C@H]21)S(=O)(=O)c1cccc2c1OCO2,fluorescence,,,<0.001 µM
COC(=O)[C@@H]1CCCN1C(=O)C(=O)C(Cc1ccccc1)NC(=O)OC(C)(C)C,substrate cleavage,,,6 µM
CN(C)C(=NCCCCCC(C)(C)CN(C[C@@H](O)[C@H](Cc1ccccc1)NC(=O)O[C@H]1CO[C@H]2OCC[C@H]21)S(=O)(=O)c1ccc2c(c1)OCO2)NC#N,fluorescence,,,<0.001 µM
O=S1(=O)N(Cc2ccccc2CCc2ccccc2)C[C@H](O)[C@@H](O)CN1Cc1ccccc1Cc1ccccc1,fluorescence,,,7.5 µM
CC(C)OC(=O)NCCCCC(C)(C)CN(C[C@@H](O)[C@H](Cc1ccccc1)NC(=O)O[C@@H]1CO[C@@H]2OCC[C@@H]21)S(=O)(=O)c1ccc2c(c1)OCO2,fluorescence,,,<0.001 µM
COC(=O)[C@@H](NC(=O)[C@@H](NC(=O)CNC[C@H](O)[C@H](Cc1ccccc1)NC(=O)[C@H](C)NC(=O)[C@H](C)N)C(C)C)C(C)C,,,IIIB,0.004 µM
CC(C)(CCCCCNS(C)(=O)=O)CN(C[C@@H](O)[C@H](Cc1ccccc1)NC(=O)O[C@H]1CO[C@H]2OCC[C@H]21)S(=O)(=O)c1ccc2c(c1)OCO2,fluorescence,,,<0.001 µM
COc1ccc(S(=O)(=O)N(CC(C)C)C[C@@H](O)CCN(CCC2CCCC2)C(=O)O[C@H]2CCOC2)cc1,HPLC,pH 4.7,IIIB,>10 µM
CC(C)(CCCCNC(=O)C1CCC1)CN(C[C@@H](O)[C@H](Cc1ccccc1)NC(=O)O[C@H]1CO[C@H]2OCC[C@H]21)S(=O)(=O)c1ccc2c(c1)OCO2,fluorescence,,,<0.001 µM
CC(O)[C@@H]1CC(NC(=O)[C@H](OCc2ccccc2)[C@H](O)[C@@H](O)[C@@H](OCc2ccccc2)C(=O)N[C@@H]2CO[C@H](C(C)O)C2)CO1,fluorescence,,,0.208 µM

The first 4 rows once more:

structure,method,setting,strain or isolate,result
CC(=O)NCC(=O)NCCCC(C)(C)CN(C[C@@H](O)[C@H](Cc1ccccc1)NC(=O)O[C@H]1CO[C@H]2OCC[C@H]21)S(=O)(=O)c1ccc2c(c1)OCO2,fluorescence,,,<0.001 µM
CON(C)C(=O)c1ccc(S(=O)(=O)N(CC(C)C)C[C@@H](O)[C@H](Cc2ccccc2)NC(=O)O[C@H]2CO[C@H]3OCC[C@H]32)cc1,substrate cleavage / fluorescence,,,0.000192 µM
CC(C)(CCNC(=O)C1CCCC1)CN(C[C@@H](O)[C@H](Cc1ccccc1)NC(=O)O[C@H]1CO[C@H]2OCC[C@H]21)S(=O)(=O)c1ccc2c(c1)OCO2,fluorescence,,,<0.001 µM
COc1cnc(CN=Cc2c(O)[nH]c3ccc(S(=O)(=O)N(CC(C)C)C[C@@H](O)[C@H](Cc4ccccc4)NC(=O)O[C@H]4CO[C@H]5OCC[C@H]54)cc23)c(OC)c1C,fluorescence,,WT,<0.0001 µM